From PubChem BioAssay AID1251 (SRMLSC, 2008)
This is a selection; strong and weak results do not stand in their true shares. Active and inactive are the calls of the source. Rule as the data show it: active = inhibition above about 30%; inactive = the rest, inconclusive results apart.

Assay: inhibitors of arbovirus infection in cells – cell-based, full library, 10K replicate subset, primary screen (AID 1251)
Conditions: arbovirus infection cell-based antiviral screen; at 10 µM; active compounds read high
In the case of `O=[N+]([O-])c1ncn(CCn2ncnc2[N+](=O)[O-])n1`, the inhibition is reported as inactive: -4.49%. In the case of `CP(=O)(OC12CC3CC(CC(C3)C1)C2)OC12CC3CC(CC(C3)C1)C2`, the inhibition is reported as inactive: -1.3%. With `CCOC(=O)c1ccc(NP(C)(=O)Oc2ccc(Cl)cc2)cc1` (stereo unspecified) the inhibition was inactive: -3.83%. For `CC1CCN(C(=O)Oc2c(Cl)cc(Cl)c3cccnc23)CC1`, the inhibition was inactive: -1.22%. In the case of `CN(C)C(=O)c1c([N+](=O)[O-])cc([N+](=O)[O-])cc1[N+](=O)[O-]`, the inhibition is reported as inactive: -30.9%. In the case of `CC(C)=N/N=C(\N)N[N+](=O)[O-]`, the inhibition is reported as inactive: 5.89%. For `CN(C)C(=O)OCCc1n(C)cc[n+]1C`, the inhibition was inactive: -3.19%. In the case of `CCN(/C(=N/P(=O)(N1CCOCC1)N1CCOCC1)N1CCOCC1)c1ccc(OC)cc1`, the inhibition is reported as inactive: 16.7%. For `CP(=O)(Nc1ccc(Cl)cc1)Oc1ccc(F)cc1` (stereo unspecified), the inhibition was inactive: 4.92%. With `COc1ccccc1OP(C)(=O)Nc1ccccc1Br` (stereo unspecified) the inhibition was inactive: 25.2%. With `CC(C)(C)c1ccc(OP(C)(=O)O)cc1` the inhibition was inactive: 7.86%. With `Cc1ccc(NP(=O)(Oc2ccccc2)Oc2ccccc2)nc1` the inhibition was inactive: 8.32%. In the case of `CP(=O)(Oc1ccccc1)N1CCOC1=O` (stereo unspecified), the inhibition is reported as inactive: 6.9%. In the case of `CCc1ccc(OP(C)(=O)Nc2cccnc2)cc1` (stereo unspecified), the inhibition is reported as inactive: 5.69%. With `CCc1nc2c(n1)c1c(non1O)c1c2no[n+]1[O-]` the inhibition was inactive: -25.5%. For `O=[N+]([O-])c1cc([N+](=O)[O-])c(CCNc2ccccc2)c([N+](=O)[O-])c1`, the inhibition was inactive: -7.79%. In the case of `O=[N+]([O-])c1cccc2n[nH]nc12`, the inhibition is reported as inactive: 4.22%. In the case of `CC(=O)N1C2C3N(C(C)=O)C1C1N(C(C)=O)C(C(N1C(C)=O)N3C(C)=O)N2C(C)=O`, the inhibition is reported as inactive: 2.45%. With `CCN(CC)CC(O)COC(=O)C(O)(c1ccccc1)C1CCCCC1` (stereo unspecified) the inhibition was inactive: 1.38%. For `COc1ccc(C2=NCC(CBr)S2)cc1` (stereo unspecified), the inhibition was inactive: -3.46%. In the case of `COc1ccc(OP(C)(=O)Nc2ccc(Br)cc2)cc1` (stereo unspecified), the inhibition is reported as inactive: -6.98%. In the case of `CCc1ccc(OP(C)(=O)O)cc1`, the inhibition is reported as inactive: 0.44%. With `CP(=O)(Nc1ccccn1)Oc1ccccc1` (stereo unspecified) the inhibition was inactive: 13.4%. For `COc1ccccc1OP(C)(=O)Nc1ccc(C)cc1C` (stereo unspecified), the inhibition was inactive: -2.34%. With `Oc1ccccc1CNc1ccccn1` the inhibition was inactive: -2.09%. In the case of `O=C(NC(Sc1ccncn1)C(Cl)(Cl)Cl)c1ccccc1` (stereo unspecified), the inhibition is reported as inactive: -7.24%. For `Cc1c2non([O-])c-2c(C)[n+](=O)[n+]1[O-]`, the inhibition was inactive: -6.68%. In the case of `Cc1c(NP(C)(=O)Oc2ccc(C(C)C)cc2)c(=O)n(-c2ccccc2)n1C` (stereo unspecified), the inhibition is reported as inactive: 10.7%. With `CC(C)CC(=O)NC(Sc1ccc(Cl)cc1)C(Cl)(Cl)Cl` (stereo unspecified) the inhibition was inactive: -4.62%. In the case of `O=[N+]([O-])c1cc([N+](=O)[O-])c(Nc2ccccn2)c([N+](=O)[O-])c1`, the inhibition is reported as inactive: -40.5%. With `CN1CCCC(OC(=O)C(c2ccccc2)c2ccccc2)C1` (stereo unspecified) the inhibition was inactive: -11.8%. In the case of `Clc1ccc(Cl)c(NC2=NCC(CBr)S2)c1` (stereo unspecified), the inhibition is reported as inactive: 0.14%. In the case of `CN(C)CCOC(=O)C(O)(c1ccccc1)C1CCCC1` (stereo unspecified), the inhibition is reported as inactive: 4.04%. In the case of `COc1ccccc1OP(=O)(Nc1ccc(C)cn1)Oc1ccccc1OC`, the inhibition is reported as inactive: -4.92%. In the case of `COc1ccc(OP(C)(=O)Nc2ccccn2)cc1` (stereo unspecified), the inhibition is reported as inactive: -1.1%. With `Cc1ccc(N/C(=N/P(=O)(N2CCOCC2)N2CCOCC2)N2CCOCC2)cc1` the inhibition was inactive: 4.17%. In the case of `NC(=O)c1cc([N+](=O)[O-])cc([N+](=O)[O-])c1N`, the inhibition is reported as inactive: 1.41%. For `CP(=O)(Nc1ccc(Cl)cc1Cl)Oc1ccccc1` (stereo unspecified), the inhibition was inactive: 7.9%. For `CP(=O)(OCCOc1ccccc1)OCCOc1ccccc1`, the inhibition was inactive: 1.43%. With `CCN(N=Nc1nonc1N)c1nonc1N` the inhibition was inactive: 1.81%. In the case of `Cc1nc2ccc3ccccc3c2o1.O=[N+]([O-])c1cc([N+](=O)[O-])c(O)c([N+](=O)[O-])c1`, the inhibition is reported as inactive: -2.74%. In the case of `COc1ccc(OP(C)(=O)Nc2ccccc2Br)cc1` (stereo unspecified), the inhibition is reported as inactive: -13.1%. In the case of `Cc1cc(SC(NC(=O)c2ccc(F)cc2)C(Cl)(Cl)Cl)ncn1` (stereo unspecified), the inhibition is reported as inactive: -3.23%. In the case of `CCOP(=O)(Nc1ccccc1)OCC`, the inhibition is reported as inactive: -5.73%. In the case of `COc1ccccc1OP(C)(=O)Nc1ccc(C)c(C)c1` (stereo unspecified), the inhibition is reported as inactive: 3.4%. With `Cc1cc(C)cc(OP(C)(=O)Nc2cccc(C(F)(F)F)c2)c1` (stereo unspecified) the inhibition was inactive: -6.3%.
